According to patent US20080199882A1, “METHOD FOR DETECTION OF BIOMARKERS FOR EXPOSURE TO STACHYBOTRYS” (published 2008):

Legend:
[1] = Amino acid-satratoxin G adducts in pronase digests of rat serum, MALDI-TOF MS; conditions: sera collected six hours after intra-tracheal instillation of spores, exhaustive proteolysis
[2] = Satratoxin G ELISA of whole blood after intratracheal instillation of S. chartarum spores

## satratoxin G
[1]
  satratoxin G amino acid adducts in serum: cysteinyl, lysyl and histydyl satratoxin G adducts were detected
[2]; 7 d old rat pups, intra-tracheal 4.0×10^5 spores/gm body weight, ethanol extracts of whole blood, ELISA detection limit 0.1 ng/ml
  time for level of free toxin in blood to decrease below the detection limit: ≤ 15 min
[2]; rat pups, equivalent satratoxin G dose 0.4 μgm/gm body wt, sacrificed immediately following spore instillation
  satratoxin G recovered in the blood: about 0.13%
